A mixed list of measured activities; the numbers were collected in NIAID ChemDB.

Common to all: growth or infection tests; agent: Herpes simplex virus 1; cells: HeLa; read-out: EC50

Two numbers with a dash give a range or band. An empty or dashed field is not shown. ECn is the concentration giving n% inhibition of infection, replication or growth. Lines come from different laboratories, so protocols vary.

SMILES | strain | read by | value
Nc1ccn([C@@H]2O[C@H](CO)[C@@H](O)[C@@H]2O)c(=O)n1 | KOS | cytopathic effect | 0.1 µg/mL
O=C(NS(=O)(=O)OC[C@H]1O[C@@H](n2ccc(=O)[nH]c2=O)[C@H](O)[C@@H]1O)O[C@H]1O[C@H](COC(=O)c2ccccc2)[C@@H](OC(=O)c2ccccc2)[C@H](OC(=O)c2ccccc2)[C@H]1OC(=O)c1ccccc1 |  | cytopathic effect | 85 µM
COc1ccc(-c2oc3cc(OC)cc(O)c3c(=O)c2OC)cc1 | HF | plaque count | 9.5 µg/mL
Nc1nc2c(ncn2COCCO)c(=O)[nH]1 | KOS | cytopathic effect | 1 µg/mL
CC1(C)O[C@@H]2[C@H](O1)[C@@H](COS(=O)(=O)NC(=O)OC1O[C@H](CO)[C@@H](O)[C@H](O)[C@H]1O)O[C@H]2n1ccc(=O)[nH]c1=O |  | cytopathic effect | 75 µM
COc1ccc(-c2cc(=O)c3c(O)cc(O)cc3o2)cc1 | HF | plaque count | 3.2 µg/mL
CCOc1cc(O)c(C(=O)/C=C/c2ccc(OC)cc2)c(OC)c1 | HF | cytopathic effect | >3 µg/mL
Nc1ccn([C@H]2C[C@H](O)[C@@H](CO)O2)c(=O)n1 |  | virus yield | <26 µM
CN1[C@@H]2CC[C@H]1CC(OC(=O)C(CO)c1ccccc1)C2 |  | cytopathic effect | 50–100 µg/mL
O=c1ccn([C@H]2C[C@H](O)[C@@H](CO)O2)c(=O)[nH]1 |  | virus yield | <50 µM
O=C(NC1CC1)c1cc2c(s1)-c1ccccc1N(C(=O)c1ccc(NC(=O)c3ccccc3-c3ccccc3)cc1)CC2 | KOS | plaque count | >100 µM
Nc1ncnc2c1ncn2[C@@H]1O[C@H](CO)[C@@H](O)[C@@H]1O | KOS | cytopathic effect | 40 µg/mL
O=c1[nH]c(=O)n([C@H]2C[C@H](O)[C@@H](CO)O2)cc1I | HF | plaque count | 3.66 µg/mL
Nc1nc2c(ncn2COC(CO)CO)c(=O)[nH]1 | ICI | plaque count | 0.52 µM

2 of the rows above, restated:

SMILES,strain,read by,value
COc1ccc(-c2cc(=O)c3c(O)cc(O)cc3o2)cc1,HF,plaque count,3.2 µg/mL
Nc1nc2c(ncn2COC(CO)CO)c(=O)[nH]1,ICI,plaque count,0.52 µM